Target: H1 monomeric (NL09 HA) (Influenza A virus …, UniProt C3PSV2, strain)
Assay: ELISA

B1: CR9114 antibody (antibody, V domains shown)
VH: QVQLVQSGAEVKKPGSSVKVSCKSSGGTSNNYAISWVRQAPGQGLDWMGGISPIFGSTAYAQKFQGRVTISADIFSNTAYMELNSLTSEDTAVYFCARHGNYYYYSGMDVWGQGTTVTVSS
VL: QSALTQPPAVSGTPGQRVTISCSGSDSNIGRRSVNWYQQFPGTAPKLLIYSNDQRPSVVPDRFSGSKSGTSASLAISGLQSEDEAEYYCAAWDDSLKGAVFGGGTQLTVL
notes: copies: 2 + 2
  binding result: binds

— publication PMC10998906 (NPJ Vaccines, 2024)
